# PSTVd loop 15 mutant pool in Nicotiana benthamiana

Reference: Wu et al. 2024, doi:10.1371/journal.ppat.1012142.

PSTVd intermediate strain, loop 15: wild type GGAAACCGCUACUAC, pool pattern GGAAACCGNNNNNNC; upper and lower strand joined, each 5' to 3', the first 7 letters being the upper strand, closing pairs included.

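Three N. benthamiana plants were inoculated with the whole mutant pool. Samples came from the inoculated region at 5 days, the leaf margin at 10 and upper systemic leaves at 12.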

Values are reads per thousand in the sample; higher means more abundant, 0 means not found.
Each value is the mean of three plants.
"Pool" is the share in the plasmid pool used as inoculum, on the same scale.
The inoculated region was read from the minus strand, the other sites from the plus strand.

sequence	pool	inoculated region	leaf margin	systemic leaves
GGAAACCGCCUAGAC	0.160	0.107	0	0
GGAAACCGGAUCUCC	0.288	0.103	0	0
GGAAACCGGAUCGUC	0.416	0.0893	0	0
GGAAACCGCAAGUAC	0.160	0.345	0.0733	0.0841
GGAAACCGAGAAUUC	0.128	0.313	0.0798	0.0613
GGAAACCGUUUGAGC	0.224	0.103	0.0175	0.0107
GGAAACCGUCAACUC	0.160	0.356	0.0967	0.0161
GGAAACCGCUGGCGC	0.224	0.0805	0.00742	0.00537
GGAAACCGAUGCCUC	0.240	0.128	0.0121	0
GGAAACCGGAGGAAC	0.272	0.125	0.00539	0.00537
GGAAACCGAUAGAGC	0.208	0.372	0.158	0.0667
GGAAACCGAGGCAAC	0.176	0.0859	0.0262	0
GGAAACCGACGGGGC	0.208	0.0794	0	0
GGAAACCGAGUAAGC	0.176	0.205	0.0121	0
GGAAACCGACUUUAC	0.208	0.117	0.0208	0
GGAAACCGAUCGGUC	0.208	0.121	0.0121	0
GGAAACCGAGUACUC	0.128	0.0931	0	0
GGAAACCGAAGUGGC	0.208	0.115	0.00668	0
GGAAACCGGGCUCGC	0.256	0.0891	0.0134	0
GGAAACCGGUUUACC	0.176	0.0963	0.0187	0
GGAAACCGAUUGUAC	0.224	0.352	0.116	0.0610
GGAAACCGUUAGCUC	0.208	0.332	0.137	0.0860
GGAAACCGACCUGCC	0.256	0.115	0.00539	0
GGAAACCGAGCGACC	0.176	0.0913	0.0108	0.00537
GGAAACCGGCAGUAC	0.208	0.296	0.110	0.0720
GGAAACCGCUUGAGC	0.240	0.0946	0	0.00537
GGAAACCGCUGUUUC	0.176	0.0769	0.00742	0
GGAAACCGGCCUGAC	0.336	0.137	0.0108	0
GGAAACCGCGGGGCC	0.320	0.118	0.0175	0
GGAAACCGAAGUCGC	0.240	0.0742	0.0128	0
GGAAACCGAUCCAUC	0.256	0.165	0.0328	0.0107
GGAAACCGGAGCCCC	0.256	0.111	0.0141	0.00537
GGAAACCGGGUGUAC	0.304	0.275	0.173	0.0411
GGAAACCGAAACCGC	0.224	0.0984	0.0195	0
GGAAACCGAGAGGGC	0.368	0.280	0.0134	0.0107
GGAAACCGUUUUACC	0.320	0.0516	0.0121	0
GGAAACCGCCAGCGC	0.256	0.107	0.0108	0
GGAAACCGAAGGGUC	0.208	0.0821	0.0128	0
GGAAACCGUCCUGAC	0.256	0.0697	0.0241	0
GGAAACCGUACACCC	0.272	0.0893	0.0141	0
GGAAACCGUGAGCAC	0.208	0.309	0.142	0.0632
GGAAACCGAACAUGC	0.224	0.0850	0.0128	0
GGAAACCGCGUCCUC	0.240	0.143	0.0141	0
GGAAACCGACGCCUC	0.256	0.0678	0.00539	0
GGAAACCGUAGAUCC	0.192	0.0588	0.00539	0.0130
GGAAACCGACAGAGC	0.224	0.0977	0.00539	0
GGAAACCGCCCUGAC	0.272	0.179	0.0187	0.0104
GGAAACCGGAAGGAC	0.240	0.246	0.118	0
GGAAACCGGGUCGUC	0.240	0.160	0.00742	0
GGAAACCGAUUACAC	0.272	0.0566	0	0
GGAAACCGAGGUAAC	0.224	0.0796	0	0
GGAAACCGACAUACC	0.256	0.0999	0.00668	0
GGAAACCGGGUUUCC	0.208	0.0803	0.0175	0
GGAAACCGAGAUUGC	0.320	0.457	0.0885	0.0493
GGAAACCGUUGGGCC	0.256	0.102	0.0175	0
GGAAACCGCAUGCAC	0.192	0.0969	0	0
GGAAACCGACGACCC	0.208	0.0821	0	0
GGAAACCGCGGAACC	0.304	0.117	0.00742	0
GGAAACCGAAUAGAC	0.320	0.103	0.0208	0.00537
GGAAACCGAUGAAUC	0.208	0.0847	0.0289	0
GGAAACCGUAUAUAC	0.224	0.345	0.202	0.0866
GGAAACCGUUCCUCC	0.352	0.0931	0.00668	0
GGAAACCGGAUAUCC	0.144	0.0565	0.0321	0
GGAAACCGGGAGGAC	0.224	0.327	0.124	0.0183
GGAAACCGUGGCGCC	0.192	0.0856	0.00742	0
GGAAACCGUCCUAUC	0.336	0.108	0.00742	0
GGAAACCGACAUUGC	0.288	0.353	0.113	0.0161
GGAAACCGAAAAUAC	0.128	0.341	0.0965	0.0714
GGAAACCGAGUAUAC	0.352	0.431	0.877	0.0718
GGAAACCGCCUGUGC	0.256	0.282	0.143	0.0268
GGAAACCGGAAGCAC	0.288	0.147	0.0141	0.00537
GGAAACCGGCAAUGC	0.160	0.124	0.0195	0
GGAAACCGUGUACUC	0.288	0.0669	0.0108	0
GGAAACCGCAGUCAC	0.304	0.0568	0	0

With 43,870-66,106 reads a sample, very low values are single reads.
Sequences that differ at fixed positions probably stem from PCR or sequencing errors, and defective variants can be carried along by functional ones.
For reference, wild type rose from 33.9 per thousand in the pool to 202, 200, 159 (inoculated region), 724, 746, 710 (leaf margin) and 856, 883, 880 (systemic leaves).